PubChem BioAssay AID1224833, University of Georgia – 2016
Aim: 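Host factors restraining rotavirus as candidate antiviral genes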 (primary screen). System: monkey MA104 kidney cells. Reagents: siRNA pool against human genes, 50 nM. Time to read-out: 48 h knock-down before infection; read 24 h after infection. Conditions: infection with rotavirus strain RV3 two days after transfection; infectious dose for this stage not given. Measured: 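Rotavirus antigen per well by fluorescent immunoassay, normalised to non-targeting control wells on each plate and given as a standard z-score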. Direction: z-score vs non-targeting control: higher = more rotavirus replication than with non-targeting control. Active means: In these data the active calls have z-score vs non-targeting control at about -1 or lower, or at about 1 or higher. Calls: active = z-score beyond 1 either way; inactive = z-score within 1 of zero.
Shown is a random part of about 12,000 reagents tested. About 5,600 of all reagents (46%) count as active. 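Active calls cover z-scores past 1 in both directions, so they include lowered as well as raised rotavirus replication.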 No sequences are given here.

target gene | z-score vs non-targeting control | outcome
EOLA2 | 0.0735 | inactive
GPS2 | -0.651 | inactive
TPST2 | -0.584 | inactive
WNT3A | -0.605 | inactive
CSRNP2 | -0.545 | inactive
ANXA4 | 0.329 | inactive
RPS23 | -1.89 | active
RASA2 | -0.515 | inactive
ELMO3 | -0.437 | inactive
PPDPFL | -0.39 | inactive
TTI1 | 0.174 | inactive
CPNE5 | -0.794 | inactive
TTPAL | 0.761 | inactive
SPMAP1 | 0.47 | inactive
DYNAP | 1.64 | active

Quoted from above for reference:
target gene | z-score vs non-targeting control | outcome
EOLA2 | 0.0735 | inactive
GPS2 | -0.651 | inactive
TPST2 | -0.584 | inactive

More results follow.
target gene | z-score vs non-targeting control | outcome
CENPQ | -0.519 | inactive
GSTA5 | -1.2 | active
PRDM14 | 0.94 | inactive
LURAP1 | 0.0988 | inactive
EMC3 | 4.59 | active
C10orf55 | -1.71 | active
FIP1L1 | -0.926 | inactive
NDC1 | -0.8 | inactive
NACC2 | 0.105 | inactive
DNAJC22 | -1.01 | active
SPATA31E1 | -2.02 | active
MYO9B | 0.135 | inactive
DNHD1 | 1.53 | active
MGME1 | -0.0694 | inactive
OR2B6 | 1.54 | active
GPSM1 | -1.32 | active
PDIA4 | 1.28 | active
ROPN1B | -1.34 | active
MED11 | -2.29 | active
COMMD5 | 1.13 | active
PLA2G5 | -0.57 | inactive
ZNF257 | -0.785 | inactive
ZNF189 | -0.547 | inactive
MRPL39 | 0.562 | inactive
PDZD2 | 0.398 | inactive
TUBE1 | -2.33 | active
PLEKHO2 | -0.119 | inactive
AHDC1 | 1.77 | active
VGLL4 | 0.452 | inactive
ZC3H3 | 0.612 | inactive
